Assay results: the CheMixHub ionic liquid set

Assay: xn = mol fraction of the nth substance listed

CC[N+]1(C)CCCC1.O=S(=O)(F)[N-]S(=O)(=O)F + O=S(=O)(F)[N-]S(=O)(=O)F.[Na+]
101 kPa
Conditions	electrical conductivity [S/m]	viscosity [mPa·s]
293 K, x2 = 0.3	0.138	–
293 K, x2 = 0.4	0.07	–
313 K, x2 = 0.3	0.355	97.2
323 K, x2 = 0.7	0.05	1040
333 K, x2 = 0.3	0.679	46.9
343 K, x2 = 0.3	0.891	34.5
343 K, x2 = 0.5	0.451	102
353 K, x2 = 0.4	0.832	43.1
363 K, x2 = 0.3	1.4	20.5
363 K, x2 = 0.4	1.09	33.3
373 K, x2 = 0.4	1.37	26.4
373 K, x2 = 0.6	0.739	55.6
403 K, x2 = 0.5	2.11	19.4

CCC[N+]1(C)CCCCC1.O=S(=O)([N-]S(=O)(=O)C(F)(F)F)C(F)(F)F + CCC[N+]1(C)CCCCC1.O=S(=O)(F)[N-]S(=O)(=O)F
101.3 kPa, x1 = 1
Conditions	viscosity [mPa·s]
283.15 K	397
288.15 K	277
353.15 K	17.3

CCC[N+]1(C)CCCCC1.O=S(=O)(F)[N-]S(=O)(=O)F + CCCC[N+]1(C)CCCC1.O=S(=O)(F)[N-]S(=O)(=O)F
101.3 kPa
Conditions	viscosity [mPa·s]
288.15 K, x1 = 0.6	83
293.15 K, x1 = 0.2	93
293.15 K, x1 = 0.6	68
298.15 K, x1 = 0.6	56
298.15 K, x1 = 0.8	55
303.15 K, x1 = 0.2	62
303.15 K, x1 = 0.4	50
313.15 K, x1 = 1	31.8
318.15 K, x1 = 0.6	29.6
328.15 K, x1 = 0.4	23.4
333.15 K, x1 = 0.8	19.8
333.15 K, x1 = 1	18.9
343.15 K, x1 = 0.2	19.1
348.15 K, x1 = 1	13.7

CCC[N+]1(C)CCCCC1.O=S(=O)(F)[N-]S(=O)(=O)F + CCC[N+]1(C)CCCCC1.O=S(=O)([N-]S(=O)(=O)C(F)(F)F)C(F)(F)F
101.3 kPa
Conditions	viscosity [mPa·s]
288.15 K, x2 = 0	74
288.15 K, x2 = 0.6	129
293.15 K, x2 = 0.6	101
298.15 K, x2 = 0.8	104
308.15 K, x2 = 0.2	40.6
308.15 K, x2 = 0.4	47.3
313.15 K, x2 = 0.6	43.9
343.15 K, x2 = 0.2	15.7

CCC[N+]1(C)CCCC1.N#C[N-]C#N + O=S(=O)(F)[N-]S(=O)(=O)F.[Na+]
101.3 kPa, frequency 3 MHz, x1 = 0.19
Conditions	electrical conductivity [S/m]
252.85 K	0.16
302.55 K	1.44
342.65 K	3.42

Conditions	viscosity [mPa·s]
293.15 K, 101.3 kPa, x1 = 0.19	42
